Measurements taken from PMC6154613, “Investigation of the Anti-Leishmania (Leishmania) infantum Activity of Some Natural Sesquiterpene Lactones” (Molecules : A Journal of Synthetic Chemistry and Natural …, 2017).

Test system: L. (L.) infantum intracellular amastigotes
Test: Activity against intracellular amastigotes in peritoneal macrophages, Giemsa staining and light microscopy
Type: cell-based, Leishmania (Leishmania) infantum
Settings: selectivity index = CC50 in NCTC cells / IC50 in amastigotes
Description: L. (L.) infantum (MHOM/BR/1972/LD) promastigotes were maintained in M-199 medium supplemented with 10% heat-inactivated fetal bovine serum (FBS) (Gibco, Thermo Fisher Scientific, São Paulo, Brazil), 0.25% hemin (Sigma-Aldrich), and 5% human urine at 24 °C. Amastigotes were obtained from the spleen of previously infected hamsters by differential centrifugation. Macrophages were collected from the peritoneal cavity of BALB/c mice by washing with RPMI-1640 medium supplemented with 10% FBS, and were maintained at 37 °C in a 5% CO2-humidified incubator. Murine fibroblasts NCTC (clone L929 ATCC) were used to evaluate the cytotoxicity of the tested compounds. NCTC cells were maintained in M-199 medium supplemented with 10% FBS and 20 μg/mL gentamicin at 37 °C in a 5% CO2-humidified incubator.
Murine peritoneal macrophages were collected from the peritoneal cavity of BALB/c mice, and the macrophages were seeded at 1 × 10^5/well for 24 h in a 16-well slide. […] The parasite burden was determined by the number of infected macrophages out of 400 cells.
Data processing and statistical analyses was done with GraphPad Prism® 5.0 (GraphPad Software, Inc. La Jolla, CA, USA). For determination of antileishmanial activity and NCTC cytotoxicity, the IC50 and CC50 values were calculated after normalization using sigmoidal dose-response curves. […]

SMILES: C=C1C(=O)O[C@H]2[C@H]1CC/C(C)=C/CC[C@@]1(C)O[C@@H]21 [Parthenolide (6), Parthenolide]
- SI (NCTC/Amastigote): <1
